In test [1] the target is HA of H7N1 A/ck/FPV/Rostock/34 (influenza A virus H7N1 …, UniProt P03459 19-563). The test is described as follows: cell-based or functional assay.
Test [2] has as its target HA of H5 A/VN/1194/04 (influenza A virus H5 A/VN/1194/04). Nature of the test: cell-based or functional assay.
Test [3] has as its target HA of H5N1 A/Viet Nam/1/05 (influenza A virus H5N1 A/Viet Nam/1/05). Nature of the test: ELISA on recombinant or purified HA.
In test [4] the target is HA of H7N3 A/Canada/444/04 (influenza A virus H7N3 A/Canada/444/04). Nature of the test: ELISA on recombinant or purified HA.
The target in test [5] is HA of H8N4 A/Alberta/357/84 (influenza A virus H8N4 A/Alberta/357/84). The test is described as follows: ELISA on recombinant or purified HA.
The target in test [6] is HA of H10N4 A/mink/Sweded/3900/84 (influenza A virus H10N4 …). The test is described as follows: ELISA on recombinant or purified HA.
The target in test [7] is HA of H9 A/HK/1073/99 (influenza A virus H9N2 A/Hong …). The test is described as follows: ELISA on recombinant or purified HA.
The target in test [8] is HA of H5N1 A/Viet Nam/1203/04 (influenza A virus H5N1 A/Viet …). Nature of the test: ELISA on recombinant or purified HA.
The target of test [9] is HA of H6N5 A/shearwater/Australia/1/72 (influenza A virus H6N5 …). The test is described as follows: ELISA on recombinant or purified HA.
In test [10] the target is H5-HA (Table 7) (influenza A virus, H5 subtype, strain …). Nature of the test: ELISA on baculovirus-derived recombinant HA.
Test [11] has as its target H7-HA (Table 7) (influenza A virus, H7 subtype, strain …). Nature of the test: ELISA on baculovirus-derived recombinant HA.

Substitutions are numbered along the chain they refer to.

From US20170204167A1 (INSTITUTE FOR RESEARCH IN BIOMEDICINE, published 2017) come the findings set out here.

B1: FI6 variant 4 (antibody, V domains shown)
VH: QVQLVQSGGGVVQPGRSLRLSCVASGFTFSTYAMHWVRQAPGRGLEWVAVISYDANYKYYADSVKGRFSISRDNSQNTLHLEMNTLRTEDTALYYCAKDSQLRSLLYFEWLSQGYFEPWGQGTLVTVTS
VL: DIVMTQSPDSLAVSLGERATINCKSSQSVTFNYKNYLAWYQQKPGQPPKLLIYWASTRESGVPDRFSGSGSGTDFTLTISSLQAEDVAVYYCQQHYRTPPTFGQGTKVEIK
Regarding B1, in test [1], the “Neutralization H7 A/ck/FPV Rostock/34 IC50 (µg/ml), pseudovirus” value is 0.0093 µg/mL. Also, in test [2], the “Neutralization H5 A/VN/1194/04 IC50 (µg/ml), pseudovirus” value is 0.0035 µg/mL.

B2: FI6 variant 5 (antibody, V domains shown)
VH: B1 VH
VL: B1 VL with Y33N
B2: the “Neutralization H7 A/ck/FPV Rostock/34 IC50 (µg/ml), pseudovirus” value in test [1] is 0.022 µg/mL. The “Neutralization H5 A/VN/1194/04 IC50 (µg/ml), pseudovirus” value in test [2] was determined as 0.0054 µg/mL.

B3: FI6 variant 3 (antibody, V domains shown)
VH: QVQLVESGGGVVQPGRSLRLSCAASGFTFSTYAMHWVRQAPGKGLEWVAVISYDANYKYYADSVKGRFTISRDNSKNTLYLQMNSLRAEDTAVYYCAKDSQLRSLLYFEWLSQGYFDYWGQGTLVTVSS
VL: B1 VL
For B3, the half-maximal effective concentration (EC50) turned out to be 0.011 mg/L in test [3]; 0.025 mg/L in test [4]; 0.027 mg/L in test [5]; 0.085 mg/L in test [6]; 0.015 mg/L in [7]; 0.014 mg/L in test [8]. Moreover, the concentration giving a half-maximal response (EC50) in test [9] was 0.034 mg/L; in test [10], 0.0235 mg/L; in [11], 0.0573 mg/L.
